# Source: US5969096A (priority 1998, dated 1999)
# Amino acid sequences for entries named in this document (tags omitted). Residues count along the entry.
# UniProt P17787, 26-502 limits assumed: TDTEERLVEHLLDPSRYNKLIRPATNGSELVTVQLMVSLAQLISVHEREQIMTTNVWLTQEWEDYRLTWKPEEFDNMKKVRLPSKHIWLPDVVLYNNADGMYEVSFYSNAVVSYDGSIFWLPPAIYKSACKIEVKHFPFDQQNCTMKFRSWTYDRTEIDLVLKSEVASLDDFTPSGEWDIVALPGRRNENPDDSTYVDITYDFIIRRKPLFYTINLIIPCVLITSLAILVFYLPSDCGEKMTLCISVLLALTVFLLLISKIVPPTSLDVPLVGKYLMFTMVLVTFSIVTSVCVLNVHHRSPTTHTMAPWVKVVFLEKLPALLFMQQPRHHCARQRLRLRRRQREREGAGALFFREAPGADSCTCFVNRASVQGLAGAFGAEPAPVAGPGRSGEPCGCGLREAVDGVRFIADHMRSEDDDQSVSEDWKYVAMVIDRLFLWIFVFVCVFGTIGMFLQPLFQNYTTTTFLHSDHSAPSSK
# UniProt P43681, 29-627 limits assumed: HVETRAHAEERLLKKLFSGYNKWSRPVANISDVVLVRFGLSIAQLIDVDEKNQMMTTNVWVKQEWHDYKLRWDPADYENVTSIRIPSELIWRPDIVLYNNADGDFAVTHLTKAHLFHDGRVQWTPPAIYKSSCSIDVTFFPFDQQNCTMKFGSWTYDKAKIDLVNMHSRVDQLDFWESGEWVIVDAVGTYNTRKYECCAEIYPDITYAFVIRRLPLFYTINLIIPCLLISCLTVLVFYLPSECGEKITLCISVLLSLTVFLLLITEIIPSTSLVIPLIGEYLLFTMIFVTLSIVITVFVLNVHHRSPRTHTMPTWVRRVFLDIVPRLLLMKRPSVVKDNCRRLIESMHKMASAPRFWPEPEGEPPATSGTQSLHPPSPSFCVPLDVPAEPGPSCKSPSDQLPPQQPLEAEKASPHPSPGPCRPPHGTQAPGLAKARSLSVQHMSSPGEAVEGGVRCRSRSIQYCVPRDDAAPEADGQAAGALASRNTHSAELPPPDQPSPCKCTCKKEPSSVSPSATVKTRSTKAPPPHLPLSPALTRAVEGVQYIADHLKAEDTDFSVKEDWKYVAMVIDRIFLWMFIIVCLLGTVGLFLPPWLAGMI
# UniProt P02710, 25-461 limits assumed: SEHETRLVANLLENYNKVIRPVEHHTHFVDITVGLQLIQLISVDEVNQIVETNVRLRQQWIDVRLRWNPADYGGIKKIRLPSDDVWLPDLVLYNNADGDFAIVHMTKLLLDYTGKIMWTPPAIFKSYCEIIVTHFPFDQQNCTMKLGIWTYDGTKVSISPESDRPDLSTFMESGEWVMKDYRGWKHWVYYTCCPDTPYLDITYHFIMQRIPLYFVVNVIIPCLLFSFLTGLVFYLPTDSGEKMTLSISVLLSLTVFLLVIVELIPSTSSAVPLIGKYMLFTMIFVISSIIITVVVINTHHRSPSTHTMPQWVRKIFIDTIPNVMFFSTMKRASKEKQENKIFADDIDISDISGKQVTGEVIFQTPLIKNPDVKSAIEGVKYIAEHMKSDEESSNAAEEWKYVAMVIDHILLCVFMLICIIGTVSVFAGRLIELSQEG
# UniProt P02712, 25-493 limits assumed: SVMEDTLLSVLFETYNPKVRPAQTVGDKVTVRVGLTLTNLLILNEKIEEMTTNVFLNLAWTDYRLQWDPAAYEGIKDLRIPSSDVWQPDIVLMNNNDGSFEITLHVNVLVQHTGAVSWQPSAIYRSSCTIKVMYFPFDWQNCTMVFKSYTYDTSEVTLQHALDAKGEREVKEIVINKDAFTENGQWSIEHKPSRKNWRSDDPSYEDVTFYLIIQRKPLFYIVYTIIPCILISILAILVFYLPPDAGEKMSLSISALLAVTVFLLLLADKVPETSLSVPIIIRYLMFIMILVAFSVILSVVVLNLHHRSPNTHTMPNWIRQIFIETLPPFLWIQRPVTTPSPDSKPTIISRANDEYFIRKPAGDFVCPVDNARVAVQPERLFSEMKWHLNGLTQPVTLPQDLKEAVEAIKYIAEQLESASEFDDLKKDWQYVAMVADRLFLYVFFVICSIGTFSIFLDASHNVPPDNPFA
# UniProt P02714, 18-506 limits assumed: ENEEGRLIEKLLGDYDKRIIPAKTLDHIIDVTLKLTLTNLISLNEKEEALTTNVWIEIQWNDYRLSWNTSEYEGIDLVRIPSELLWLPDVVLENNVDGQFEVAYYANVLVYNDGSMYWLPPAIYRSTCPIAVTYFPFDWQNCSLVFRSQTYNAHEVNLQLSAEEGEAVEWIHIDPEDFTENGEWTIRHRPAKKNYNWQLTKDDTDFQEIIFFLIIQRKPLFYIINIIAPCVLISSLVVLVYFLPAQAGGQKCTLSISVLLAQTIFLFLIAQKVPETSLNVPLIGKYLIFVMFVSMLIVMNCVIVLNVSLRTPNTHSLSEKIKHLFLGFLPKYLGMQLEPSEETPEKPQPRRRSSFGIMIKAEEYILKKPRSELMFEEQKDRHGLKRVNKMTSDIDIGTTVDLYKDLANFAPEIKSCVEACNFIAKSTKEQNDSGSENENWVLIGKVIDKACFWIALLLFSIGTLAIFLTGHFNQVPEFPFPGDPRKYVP
# UniProt P02718, 22-522 limits assumed: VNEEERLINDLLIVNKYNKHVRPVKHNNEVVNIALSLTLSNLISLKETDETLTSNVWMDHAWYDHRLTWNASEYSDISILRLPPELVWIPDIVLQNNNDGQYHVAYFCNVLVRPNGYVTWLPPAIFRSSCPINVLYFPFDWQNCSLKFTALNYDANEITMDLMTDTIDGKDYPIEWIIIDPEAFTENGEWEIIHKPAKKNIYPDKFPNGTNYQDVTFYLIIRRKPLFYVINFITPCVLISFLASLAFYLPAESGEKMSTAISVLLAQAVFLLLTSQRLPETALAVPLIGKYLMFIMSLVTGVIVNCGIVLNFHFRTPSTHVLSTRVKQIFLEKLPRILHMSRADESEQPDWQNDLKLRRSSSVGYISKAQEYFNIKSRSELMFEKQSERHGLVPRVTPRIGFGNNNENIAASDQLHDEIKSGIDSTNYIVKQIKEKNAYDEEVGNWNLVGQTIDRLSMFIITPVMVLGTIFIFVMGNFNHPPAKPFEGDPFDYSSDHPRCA
# UniProt P02716, 25-520 limits assumed: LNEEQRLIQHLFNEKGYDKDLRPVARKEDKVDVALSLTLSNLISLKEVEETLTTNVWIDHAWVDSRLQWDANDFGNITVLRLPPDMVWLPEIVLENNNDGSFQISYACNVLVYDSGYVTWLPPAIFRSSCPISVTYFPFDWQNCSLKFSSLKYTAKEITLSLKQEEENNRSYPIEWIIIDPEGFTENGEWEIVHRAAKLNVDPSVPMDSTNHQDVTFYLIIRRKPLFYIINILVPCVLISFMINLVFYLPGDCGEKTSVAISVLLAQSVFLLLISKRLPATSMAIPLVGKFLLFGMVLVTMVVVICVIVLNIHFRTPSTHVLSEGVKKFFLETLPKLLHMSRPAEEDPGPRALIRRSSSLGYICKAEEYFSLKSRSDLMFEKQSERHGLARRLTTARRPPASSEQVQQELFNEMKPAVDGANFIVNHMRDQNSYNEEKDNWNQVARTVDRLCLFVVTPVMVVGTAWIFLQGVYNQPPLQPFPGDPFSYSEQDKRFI
# UniProt P04756, 21-457 limits assumed: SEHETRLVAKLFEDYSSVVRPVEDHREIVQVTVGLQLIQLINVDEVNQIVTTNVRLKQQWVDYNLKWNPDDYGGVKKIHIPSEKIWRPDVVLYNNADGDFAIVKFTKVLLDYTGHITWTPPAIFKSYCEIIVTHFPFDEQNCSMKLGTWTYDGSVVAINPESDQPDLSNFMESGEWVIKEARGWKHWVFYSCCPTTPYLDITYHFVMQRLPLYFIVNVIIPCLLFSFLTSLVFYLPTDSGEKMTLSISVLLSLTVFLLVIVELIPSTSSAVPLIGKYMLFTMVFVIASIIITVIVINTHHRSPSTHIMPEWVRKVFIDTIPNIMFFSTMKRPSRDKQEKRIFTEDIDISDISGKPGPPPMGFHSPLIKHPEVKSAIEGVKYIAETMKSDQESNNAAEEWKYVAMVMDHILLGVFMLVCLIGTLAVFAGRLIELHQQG
# UniProt P04760, 23-519 limits assumed: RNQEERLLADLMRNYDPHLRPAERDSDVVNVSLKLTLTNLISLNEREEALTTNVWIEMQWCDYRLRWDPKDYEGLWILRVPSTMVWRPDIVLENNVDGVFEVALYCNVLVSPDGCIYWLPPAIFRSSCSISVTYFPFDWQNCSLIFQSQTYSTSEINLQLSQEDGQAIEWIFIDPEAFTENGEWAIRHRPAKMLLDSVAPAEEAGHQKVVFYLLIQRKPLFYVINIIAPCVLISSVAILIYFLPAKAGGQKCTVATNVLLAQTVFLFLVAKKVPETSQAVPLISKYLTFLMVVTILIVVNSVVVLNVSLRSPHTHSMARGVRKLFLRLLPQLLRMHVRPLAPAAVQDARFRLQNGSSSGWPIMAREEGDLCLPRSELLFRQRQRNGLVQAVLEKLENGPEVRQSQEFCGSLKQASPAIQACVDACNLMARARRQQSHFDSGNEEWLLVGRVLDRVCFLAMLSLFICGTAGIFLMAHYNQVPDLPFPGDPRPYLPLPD
# UniProt P09690, 24-501 limits assumed: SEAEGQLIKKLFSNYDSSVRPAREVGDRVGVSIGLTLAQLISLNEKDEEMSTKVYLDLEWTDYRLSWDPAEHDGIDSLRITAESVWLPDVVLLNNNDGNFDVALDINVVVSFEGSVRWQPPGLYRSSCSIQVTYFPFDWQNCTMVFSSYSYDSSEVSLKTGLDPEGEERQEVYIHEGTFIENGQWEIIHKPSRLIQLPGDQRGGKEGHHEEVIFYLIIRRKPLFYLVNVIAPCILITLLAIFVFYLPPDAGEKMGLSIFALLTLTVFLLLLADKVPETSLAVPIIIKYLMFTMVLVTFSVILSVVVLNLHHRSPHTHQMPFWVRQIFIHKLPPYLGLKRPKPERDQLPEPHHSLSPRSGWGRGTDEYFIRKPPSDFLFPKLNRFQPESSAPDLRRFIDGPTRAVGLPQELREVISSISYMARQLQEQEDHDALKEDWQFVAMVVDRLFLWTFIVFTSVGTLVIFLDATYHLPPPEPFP
# Experiments:
# [1] = target: neuronal nicotinic acetylcholine receptor subtype (α4β2) (Homo sapiens, UniProt P17787+P43681); experiment: Neuronal nAChR subtype expressed in the oocyte system
# [2] = target: nAChR from Torpedo californica electroplax (acetylcholine binding site) (Tetronarce californica, UniProt P02710+P02712+P02714+P02718); experiment: Binding competition with I125-α-bungarotoxin, Torpedo electroplax membranes; conditions: Torpedo californica electroplax membrane fraction
# [3] = target: nAChR from Torpedo electric organ (Tetronarce californica, UniProt P02710+P02712+P02714+P02718); experiment: Acetylcholine-elicited current of nAChR expressed in Xenopus oocytes (Torpedo electric organ mRNA)
# [4] = target: nAChR from Torpedo californica electroplax (Tetronarce californica, UniProt P02710+P02712+P02714+P02718); experiment: Displacement of I125-conotoxin peptide, Torpedo electroplax membranes; conditions: read-out: apparent IC50, displacement of I125-conotoxin peptide; Torpedo californica electroplax membrane fraction; unlabeled peptide
# [5] = target: nAChR cloned from mouse skeletal muscle (Mus musculus, UniProt P02716+P04756+P04760+P09690); experiment: Acetylcholine-elicited current of nAChR expressed in Xenopus oocytes (mouse skeletal muscle mRNA)
smiles,measurement,setting,value
CC(C)C[C@@H]1NC(=O)[C@@H]2CSSC[C@@H]3NC(=O)[C@H](CO)NC(=O)[C@H](C)NC(=O)[C@H](CO)NC(=O)[C@H](CO)NC(=O)[C@H](CSSC[C@H](NC(=O)[C@@H]4C[C@@H](O)CN4C(=O)[C@@H]4C[C@@H](O)CN4C(=O)[C@@H](N)Cc4c[nH]cn4)C(=O)N2)NC(=O)CNC(=O)[C@@H]2C[C@@H](O)CN2C(=O)[C@H](Cc2ccc(O)cc2)NC(=O)[C@H](CCCNC(=N)N)NC(=O)[C@H](CCCNC(=N)N)NC(=O)[C@H](CSSC[C@@H](C(=O)N[C@@H](CCC(N)=O)C(=O)N[C@@H](CCCNC(=N)N)C(N)=O)NC3=O)NC(=O)[C@H](CCCCN)NC(=O)CNC(=O)[C@H](Cc2ccc(O)cc2)NC1=O,effect on neuronal nAChR subtype,[1],no significant effect
same,competition for I125-α-bungarotoxin binding,[2],does not compete for α-bungarotoxin binding
same,effect on current normally elicited by acetylcholine,[3]; Torpedo electric organ nAChR in Xenopus oocytes,inhibited the current normally elicited by acetylcholine
same,pIC50,"[3]; read-out: IC50, inhibition of acetylcholine-elicited current, Torpedo receptor in Xenopus oocytes",6.90
same,pIC50,[4],7.60
same,effect on current normally elicited by acetylcholine,[5],inhibited the current normally elicited by acetylcholine

# pIC50: −log10 of the molar value. This is a selection: effects in other tests are not listed, and their absence says nothing.
